The results in this text go back to patent EP4825846A1, “PREPARATION METHOD FOR URACIL COMPOUND AND USE OF URACIL COMPOUND” (dated 2026).

Assay in all cases: Determination of antifungal activity, mycelial growth inhibition by plate method
The test system of experiment [1] is Phytophthora infestans. To be noted: against P. infestans at a concentration of 1500 µg/mL; rye medium, 18°C, away from light.
In experiment [2] the test system is Magnaporthe oryzae. To be noted: against M. oryzae at a concentration of 1500 µg/mL; CM medium, 28°C, away from light.
Experiment [3] concerns Ustilaginoidea virens. To be noted: against U. virens at a concentration of 1500 µg/mL; PSA medium, 25°C, away from light.

The structures appear in SMILES notation.

In the case of `O=C(Nc1cc(C(=O)O)c(Cl)cc1F)Oc1ccccc1`, the inhibition rate in experiment [1] and in experiment [2] was 100% throughout.

For the molecule `CCCCCOC(=O)Nc1cc(C(=O)O)c(Cl)cc1F`, the inhibition rate in experiment [1], in experiment [3] and in experiment [2] was 100% in each case.

On to `CCOC(=O)Nc1cc(C(=O)O)c(Cl)cc1F`, for which, in experiment [1], the inhibition rate was 100%.

The molecule `CCCOC(=O)Nc1cc(C(=O)O)c(Cl)cc1F` had an inhibition rate in experiment [1] of 100%.

For `CCCCCCCOC(=O)Nc1cc(C(=O)O)c(Cl)cc1F`, the inhibition rate in experiment [1] and in experiment [3] was 100% throughout.

In experiment [1], `O=C(Nc1cc(C(=O)O)c(Cl)cc1F)OC1CCCC1` gave an inhibition rate of 100%.

As to `CCCCOC(=O)Nc1cc(C(=O)O)c(Cl)cc1F`, the inhibition rate in experiment [1] and in experiment [2] was 100% throughout.

As for `CC(C)OC(=O)Nc1cc(C(=O)O)c(Cl)cc1F`, the inhibition rate in experiment [1] is 100%.

Turning to `O=C(Nc1cc(C(=O)O)c(Cl)cc1F)OCCCl`, the inhibition rate in experiment [1] turned out to be 100%.

As to `O=C(Nc1cc(C(=O)O)c(Cl)cc1F)OCc1ccccc1`, in experiment [1], the inhibition rate was 100%.

In experiment [1], `COC(=O)Nc1cc(C(=O)O)c(Cl)cc1F` came in with an inhibition rate of 100%.

For `CCCCCCOC(=O)Nc1cc(C(=O)O)c(Cl)cc1F`, the inhibition rate in experiment [1], in experiment [3] and in experiment [2] was 100% throughout.

On to `C=CCOC(=O)Nc1cc(C(=O)O)c(Cl)cc1F`, for which the inhibition rate in experiment [1] and in experiment [2] was 100% throughout.

In turn, `CC(C)COC(=O)Nc1cc(C(=O)O)c(Cl)cc1F` registered an inhibition rate in experiment [1] of 100%.
